Results of unrelated studies side by side (data: NIAID ChemDB).

Common to all: growth or infection tests; organism: Respiratory syncytial virus; method: cytopathic effect; read-out: EC50

Neighbouring rows are from separate reports. Blank or dashed fields: not listed here. ECn: concentration that inhibits the pathogen or its effect by n%.

SMILES | cell line | strain or isolate | result
O=C(/C=C/c1ccc(O)c(O)c1)O[C@H]1[C@H](O)C[C@](O)(C(=O)O)C[C@H]1OC(=O)/C=C/c1ccc(O)c(O)c1 | HEP-2 | - | 0.5 µg/mL
CC1(C)[C@@H](CO)CC[C@@]1(C)Cn1cc(I)c(=O)[nH]c1=O | HeLa | - | >400 µg/mL
CC1(C)[C@@H](CCO)C[C@H]1n1nnc2c(=O)[nH]c(N)nc21 | HeLa | - | >400 µg/mL
Cc1cc(C)c2nc(NCCCN3CCCC3=O)n(Cc3nc(C)ccc3O)c2c1 | HeLa | - | 100 µM
NC(=O)CCN(CCC(N)=O)S(=O)(=O)c1cccc(Nc2nc(Nc3cccc(S(=O)(=O)N(CCC(N)=O)CCC(N)=O)c3)nc(Nc3ccc(-c4ccc(Nc5nc(Nc6cccc(S(=O)(=O)N(CCC(N)=O)CCC(N)=O)c6)nc(Nc6cccc(S(=O)(=O)N(CCC(N)=O)CCC(N)=O)c6)n5)cc4S(=O)(=O)O)c(S(=O)(=O)O)c3)n2)c1 | HEP-2 | 37335/TYPE A | 0.25 µg/mL
Cc1ccc(O)c(Cn2c(NCCCN3CCN(C)CC3)nc3ccccc32)n1 | HeLa | - | 0.316 µM
CCOc1ncn(-c2ccc(NC(=S)NC3O[C@H](CO)[C@@H](O)[C@H](O)[C@H]3O)cc2)n1 | HeLa | LONG | 40 µg/mL
CC1(C)[C@@H](CCO)C[C@H]1n1cnc2c(N)nc(N)nc21 | HeLa | - | >400 µg/mL
Nc1ncnc2c1ncn2[C@H]1C[C@@H](O)[C@H](CO)O1 | VERO B | A2 | >1000 µM
O=C(Nn1c(-c2cn(-c3ccccc3)nc2-c2ccccc2)n[nH]c1=S)c1ccccc1 | HeLa | - | >16 µg/mL
O=C(NCCc1ccccc1)C1=Cc2ccncc2CC1 | MA-104 | A2 | >344 µM
CC1(C)[C@@H](CO)CC[C@@]1(C)Cn1cc(Br)c(=O)[nH]c1=O | HeLa | - | >400 µg/mL
CC1(CO)CCC(Cn2nnc3c(=O)[nH]c(N)nc32)C1(C)C | HeLa | - | >400 µg/mL
CC1(C)[C@@H](CO)CC[C@@]1(C)Cn1cnc2c(Cl)ncnc21 | HeLa | - | >400 µg/mL
Cc1cn([C@H]2OC[C@@H](CO)C2F)c(=O)[nH]c1=O | HeLa | - | >80 µg/mL
CC=NC(=N)c1nc(-c2cccc(OC)c2)n(Cc2ccccc2)n1 | HeLa | LONG | 14 µg/mL
CC1(C)[C@@H](CCO)C[C@H]1n1nnc2c(Cl)nc(N)nc21 | HeLa | - | 400 µg/mL
CC=NC(=N)c1nc(-c2cccc(C)c2)n(C/C=C/c2ccccc2)n1 | HeLa | LONG | >20 µg/mL
c1ccc2c(c1)CSSC2 | HeLa | Clinical isolate NS-100 (A) | 8.9 µM
Nc1ccn([C@@H]2C=C(CO)[C@@H](O)[C@H]2O)c(=O)n1 | HeLa | LONG | 0.04 µg/mL
Nc1ncnc2c1ncn2[C@H]1OC[C@@H](CO)C1O | HeLa | - | >80 µg/mL
OC[C@H]1O[C@H](c2cc(Cl)c(F)cc2F)C[C@@H]1O | HeLa | - | >400 µg/mL
Nc1ccn([C@H]2C[C@@H](O)[C@H](CO)O2)c(=O)n1 | VERO B | A2 | >10 µM
CC=NC(=N)c1nc(-c2cccc(OC)c2)n(C/C=C/c2ccccc2)n1 | HeLa | LONG | 20 µg/mL
OC[C@H]1O[C@@H](c2cc(/C=C/Br)c(F)cc2F)C[C@@H]1O | HeLa | - | >80 µg/mL
O=C(/C=C/c1ccc(O)c(O)c1)O[C@@H]1CC(O)(C(=O)O)C[C@@H](OC(=O)/C=C/c2ccc(O)c(O)c2)C1O | HEP-2 | TYPE A2 | 0.163 µg/mL
COS(=O)(=O)O.N=C(N)c1ccc2cc(OC(=O)c3ccc(N=C(N)N)cc3)ccc2c1 | HeLa | LONG | >36 µg/mL
C=C(N=CC)c1nc(-c2ccccc2)n([C@@H]2O[C@H](CO)[C@@H](O)[C@H]2O)n1 | HeLa | LONG | 100 µg/mL
CC1(CO)CCC(Cn2cnc3c(=O)[nH]cnc32)C1(C)C | HeLa | - | >100 µg/mL
CCOc1ncn(-c2ccc(NC(=S)Nc3ncccn3)cc2)n1 | HeLa | LONG | >4 µg/mL
CCc1nc(-n2c(C)nc3ccc(Br)cc3c2=O)nc(N)c1-c1ccc(Cl)cc1 | HeLa | - | >16 µg/mL
CC1(CO)CCC(Cn2nnc3c(N)nc(N)nc32)C1(C)C | HeLa | - | >400 µg/mL
CC=NC(=N)c1nc(-c2ccccc2)n(COCCO)n1 | HeLa | LONG | >100 µg/mL
CCCOc1ncn(-c2ccc(NC(=S)NC34CC5CC(CC(C5)C3)C4)cc2)n1 | HeLa | LONG | 1.6 µg/mL
Cc1ccc2c(c1)CSSC2 | HeLa | LONG | 5.1 µM
c1ccc(-c2nn3c(-c4cn(-c5ccccc5)nc4-c4ccccc4)nnc3s2)cc1 | HeLa | - | >3.2 µg/mL
Nc1ccn([C@@H]2OC[C@H](CO)[C@H]2O)c(=O)n1 | HeLa | - | >80 µg/mL
CC1(CO)CCC(Cn2nnc3c(Cl)ncnc32)C1(C)C | HeLa | - | >40 µg/mL
Cc1cc(C)c2nc(NCCN3CCCC3)n(Cc3nc(C)ccc3O)c2c1 | HeLa | - | 0.02 µM
CC1(CO)CCC(Cn2cnc3c(Cl)nc(N)nc32)C1(C)C | HeLa | - | >200 µg/mL
COc1cc(Cc2cnc(-n3c(C)nc4ccc(Br)cc4c3=O)nc2N)cc(OC)c1OC | HeLa | - | >80 µg/mL
CC1(CO)CCC(Cc2nc3ncnc(N)c3[nH]2)C1(C)C | HeLa | - | >40 µg/mL
NC1=CC(c2ccccc2)=Nn2c(nnc2-c2cn(-c3ccccc3)nc2-c2ccccc2)S1 | HeLa | - | >16 µg/mL
Cc1cc(NCCCCCCCCNc2cc(C)nc3cc(N(C)C)ccc23)c2ccc(N(C)C)cc2n1 | HeLa | LONG | >500 µg/mL
Nc1ncnc2c1ncn2[C@@H]1O[C@@H](CO)[C@H](O)[C@H]1O | VERO B | A2 | >1000 µM
Nn1c(-c2cn(-c3ccccc3)nc2-c2ccccc2)n[nH]c1=S | HeLa | - | >16 µg/mL
Cc1cc(=O)c2c(O)c(C)c(O[C@H]3O[C@H](CO)[C@@H](O)[C@H](O)[C@H]3O)c(C)c2o1 | HEP-2 | - | 6.9 µg/mL
CCOC(=O)c1ccc(OC(=O)CCCCCN=C(N)N)cc1.COS(=O)(=O)O | HeLa | LONG | >120 µg/mL
CCOC(=O)C1Sc2nnc(-c3cn(-c4ccccc4)nc3-c3ccccc3)n2NC1=O | HeLa | - | >80 µg/mL
CSCCCNc1nc2ccccc2n1Cc1nc(C)ccc1O | HeLa | - | 15.8 µM
Nn1c(SCC(=O)O)nnc1-c1cn(-c2ccccc2)nc1-c1ccccc1 | HeLa | - | >80 µg/mL
CC=NC(=N)c1nc(-c2ccc(OC)cc2)n(C/C=C/c2ccccc2)n1 | HeLa | LONG | ≥100 µg/mL
Cc1nn2c(-c3cn(-c4ccccc4)nc3-c3ccccc3)nnc2s1 | HeLa | - | >16 µg/mL
Nc1nc(-n2c(-c3ccccc3)nc3ccc(Br)cc3c2=O)nnc1-c1cccc(Cl)c1Cl | HeLa | - | >16 µg/mL